Measurements reported in PubChem BioAssay AID1259414 (Drosophila RNAi Screening Center, 2018).

Test: 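Host factors increasing or decreasing Wolbachia levels in cultured fly cells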 (primary screen)
Cell system: Drosophila JW18 cells infected with Wolbachia
Knock-down reagent: long dsRNA against Drosophila genes, 0.25 µg dsRNA per well of a 384-well plate
Timing: 5 days
Challenge: cells persistently infected with Wolbachia before knock-down; no added drug
Measured: 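Automated imaging of bacterial rRNA staining divided by host cell count, reported as plate-normalised robust z-score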
Scale: Wolbachia per cell robust z: higher = more Wolbachia per host cell than the plate typical
Hit rule: 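Hit when robust z is 1.5 or more, or -1.5 or less, in at least two of three replicates; excludes dsRNAs with several or no targets, genes not expressed in JW18 and well A1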
In all, the deposit lists about 24,000 reagents; shown is an unselected part of those with a known target gene and a result. Over the whole deposit, about 1,210 (5%) are marked active. 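Inactive calls also include excluded dsRNAs with several or no targets, genes unexpressed in JW18, and well A1, regardless of score.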 Reagents against one gene are numbered here. Names joined by + are all predicted targets of the reagent. No sequences are given here.

gene knocked down | reagent no. | Wolbachia per cell robust z, rep 1 | Wolbachia per cell robust z, rep 2 | Wolbachia per cell robust z, rep 3 | Outcome
CG15533 | 1 | -3.92 | -1.69 | 0.978 | inactive
CG15533 | 2 | -5.11 | -1.01 | 0.175 | inactive
ey | 1 | -1.08 | 0.746 | 0.201 | inactive
ey | 2 | 0.613 | -1.18 | 1.61 | inactive
CG32262 | 1 | 0.769 | 0.686 | -0.218 | inactive
CG32262 | 2 | 0.406 | -0.899 | 0.00604 | inactive
CG11808 | 1 | 0.279 | -0.433 | -2.39 | inactive
CG11808 | 2 | -5.72 | 1.19 | 0.0876 | inactive
CG6321 | 1 | -0.929 | -0.667 | 1.1 | inactive
Gr64a | 1 | -2.07 | 0.189 | 0.293 | inactive
slp2 | 1 | -4.3 | -4.95 | 0.758 | inactive
slp2 | 2 | -1.09 | -0.0333 | -0.976 | inactive
slp2 | 3 | -0.397 | -2.62 | 0.0441 | inactive
Yip1d1 | 1 | -0.455 | 0.139 | -0.588 | inactive
Oatp58Db | 1 | -0.727 | -0.0723 | -0.553 | inactive
Oatp58Db | 2 | 0.295 | -0.0456 | -1.63 | inactive
Oatp58Db | 3 | -1.52 | -0.489 | -0.077 | inactive
Plc21C | 1 | 0.533 | 1.09 | 0.795 | inactive
Smyd4-4 | 1 | -0.186 | 0.76 | -0.0482 | inactive

The list goes on; the last 2 above are carried over.
gene knocked down | reagent no. | Wolbachia per cell robust z, rep 1 | Wolbachia per cell robust z, rep 2 | Wolbachia per cell robust z, rep 3 | Outcome
Plc21C | 1 | 0.533 | 1.09 | 0.795 | inactive
Smyd4-4 | 1 | -0.186 | 0.76 | -0.0482 | inactive
ACXC | 1 | -0.0211 | -0.162 | -0.818 | inactive
dyl | 1 | -0.892 | -0.442 | -4.33 | inactive
dyl | 2 | -1.11 | -0.657 | -0.827 | inactive
dyl | 3 | 0.913 | 0.433 | 0.171 | inactive
CG18131 | 1 | -0.933 | -1.56 | -3.67 | inactive
Sh | 1 | 0.97 | -0.122 | 0.306 | inactive
Sh | 2 | 0.349 | 0.274 | -0.0492 | inactive
Sh | 3 | 0.461 | -2.44 | -4.75 | inactive
Sh | 4 | -4.98 | -0.28 | 0.51 | inactive
Sh | 5 | -0.239 | -0.215 | -0.941 | inactive
Noa36 | 1 | -0.804 | 1.07 | -0.691 | inactive
Nepl14 | 1 | -0.526 | 0.582 | -3.95 | inactive
CG34337 | 1 | 0.095 | -0.0576 | 0.511 | inactive
CG34337 | 2 | 0.287 | -2.39 | 0.478 | inactive
mim | 1 | 0.0425 | 1.01 | -1.82 | inactive
mim | 2 | 0.582 | 0.489 | -0.456 | inactive
how | 1 | 0.468 | -1.77 | -0.681 | inactive
how | 2 | 1.2 | -1.25 | -1.95 | inactive
TwdlD | 1 | 0.748 | -0.622 | 0.237 | inactive
Cmtr1 | 1 | 0.255 | 0.945 | 1.18 | inactive
Cmtr1 | 2 | 0.854 | 1.61 | -1.46 | inactive
gammaTry + CG30031 + CG30025 + 1 more | 1 | 0.296 | 1.08 | 0.755 | inactive
gammaTry + CG30031 + CG30025 + 1 more | 2 | 1.06 | 2.34 | 0.823 | inactive
CG31855 | 1 | -0.39 | 0.883 | -4.72 | inactive
CG31855 | 2 | -0.327 | -0.436 | -2 | inactive
Capa | 1 | -1.06 | 0.685 | -0.288 | inactive
CG3500 | 1 | -1.03 | 0.922 | 0.402 | inactive
CG3500 | 2 | 0.493 | -0.617 | -1.52 | inactive
